Data as given in PubChem BioAssay AID504761 (Drosophila RNAi Screening Center, 2011).

Test: 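Insect host genes that dengue virus relies on to spread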 (primary screen)
Cells: D.Mel-2 cells from Drosophila
Reagent: long dsRNA against Drosophila genes
Treatment: infection with dengue virus type 2; dose and infection time not stated
Measurement: 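Cells stained for dengue envelope protein and imaged; percent of infected cells per well on duplicate plates, ranked by infection, with stained nuclei counted for cell number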
Reading the numbers: infection score: higher = more virus-infected cells; cell count: higher = more cells in the well
Rule for the call: 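Very low infection ranking in both replicate wells (chance probability at most 0.065), then a retest showing infection dropped 1.5-fold or more at p below 0.05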
Meaning of the calls: active = confirmed: knock-down lowers infection; inactive = not picked or not confirmed
The deposit covers about 22,000 reagents; shown is an unselected part of those that have a named target and a result. Of all reagents, 116 (0.52%) got an active call. 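Calls depend on retest data that are not deposited; infection was ranked per plate without normalising between plates; the unit of the infection score is not given.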 Raw values vary from plate to plate and are shown uncorrected. Further read-outs or replicates are left out here. Not stated in the record: the amount of reagent, the time to read-out.

{"Target gene": "GC (gamma-glutamyl carboxylase)", "DRSC id": "DRSC08396", "infection score, replicate 1": 1.41, "cell count, replicate 1": 6110, "outcome": "inactive"}
{"Target gene": "GC (gamma-glutamyl carboxylase)", "DRSC id": "DRSC27222", "infection score, replicate 1": 2.17, "cell count, replicate 1": 6741, "outcome": "inactive"}
{"Target gene": "mRpS28 (mitochondrial ribosomal protein S28)", "DRSC id": "DRSC06939", "infection score, replicate 1": 4.53, "cell count, replicate 1": 5669, "outcome": "inactive"}
{"Target gene": "tgy (twiggy)", "DRSC id": "DRSC20045", "infection score, replicate 1": 12.8, "cell count, replicate 1": 6062, "outcome": "inactive"}
{"Target gene": "AcCoAS (Acetyl Coenzyme A synthase)", "DRSC id": "DRSC11477", "infection score, replicate 1": 1.9, "cell count, replicate 1": 6530, "outcome": "inactive"}
{"Target gene": "AcCoAS (Acetyl Coenzyme A synthase)", "DRSC id": "DRSC11603", "infection score, replicate 1": 5.08, "cell count, replicate 1": 6279, "outcome": "inactive"}
{"Target gene": "AcCoAS (Acetyl Coenzyme A synthase)", "DRSC id": "DRSC22850", "infection score, replicate 1": 4.32, "cell count, replicate 1": 5625, "outcome": "inactive"}
{"Target gene": "AcCoAS (Acetyl Coenzyme A synthase)", "DRSC id": "DRSC25972", "infection score, replicate 1": 12.9, "cell count, replicate 1": 5676, "outcome": "inactive"}
{"Target gene": "CG17298", "DRSC id": "DRSC15221", "infection score, replicate 1": 4.68, "cell count, replicate 1": 6245, "outcome": "inactive"}
{"Target gene": "CG17298", "DRSC id": "DRSC27897", "infection score, replicate 1": 2.89, "cell count, replicate 1": 6712, "outcome": "inactive"}
{"Target gene": "CG11600", "DRSC id": "DRSC14332", "infection score, replicate 1": 3.11, "cell count, replicate 1": 6559, "outcome": "inactive"}
{"Target gene": "CG11600", "DRSC id": "DRSC24238", "infection score, replicate 1": 4.46, "cell count, replicate 1": 6074, "outcome": "inactive"}
{"Target gene": "Hand", "DRSC id": "DRSC02656", "infection score, replicate 1": 6.7, "cell count, replicate 1": 5521, "outcome": "inactive"}
{"Target gene": "CG30122", "DRSC id": "DRSC06935", "infection score, replicate 1": 1.19, "cell count, replicate 1": 6129, "outcome": "inactive"}
{"Target gene": "CG18343", "DRSC id": "DRSC06726", "infection score, replicate 1": 4.19, "cell count, replicate 1": 6557, "outcome": "inactive"}
{"Target gene": "CG5850", "DRSC id": "DRSC02905", "infection score, replicate 1": 13.8, "cell count, replicate 1": 6028, "outcome": "inactive"}
{"Target gene": "sm (smooth)", "DRSC id": "DRSC05795", "infection score, replicate 1": 0.69, "cell count, replicate 1": 6087, "outcome": "inactive"}
{"Target gene": "sm (smooth)", "DRSC id": "DRSC07686", "infection score, replicate 1": 7.48, "cell count, replicate 1": 1845, "outcome": "inactive"}
{"Target gene": "CG33012", "DRSC id": "DRSC06287", "infection score, replicate 1": 25.3, "cell count, replicate 1": 6061, "outcome": "inactive"}
{"Target gene": "CG33012", "DRSC id": "DRSC06288", "infection score, replicate 1": 3.87, "cell count, replicate 1": 6357, "outcome": "inactive"}
{"Target gene": "CG4553", "DRSC id": "DRSC15595", "infection score, replicate 1": 9.93, "cell count, replicate 1": 6222, "outcome": "inactive"}
{"Target gene": "CG4553", "DRSC id": "DRSC28957", "infection score, replicate 1": 8.46, "cell count, replicate 1": 2590, "outcome": "inactive"}
